B1: His-LegA15 ΔΝ2 (195 to 471) (domain or fragment)
chain: APTYQLMTDSVSHFAKSHPGNKNFQEIANAFQFSNEASAFKFSTPQRNPEAGNDLARRIQGGELTTIPVSCKGHAMGLSYVPDGPGSKSGYLVYTNRGLGAKSSEHGTHIFRIEDSSKITPEFINNMTSGHSNGASHDEIMSQIKAAAGNKEPIHHIKQKGQKNDNCTIANSKSNIEGILLCQKAREVGGFDKLTESDMDSVKKEYKEFTKHMRVEKVNELAKALKENPQDPDLNNLTKEYLKQHPNADPKLKQTLETALKQASESSMTLSQPGKTI
B2: His-LegA15 ΔΝ1 (95 to 471) (domain or fragment)
chain: DSAQSALIQATNSEGQSPLQYALQKQDFSTAKYFLDNGAKAGPIEKAVFEIALDSKAAKEFGFPPLPPEKEKLHPVKNFGLVLGIKTTSVDGTPSQFGHIAPTYQLMTDSVSHFAKSHPGNKNFQEIANAFQFSNEASAFKFSTPQRNPEAGNDLARRIQGGELTTIPVSCKGHAMGLSYVPDGPGSKSGYLVYTNRGLGAKSSEHGTHIFRIEDSSKITPEFINNMTSGHSNGASHDEIMSQIKAAAGNKEPIHHIKQKGQKNDNCTIANSKSNIEGILLCQKAREVGGFDKLTESDMDSVKKEYKEFTKHMRVEKVNELAKALKENPQDPDLNNLTKEYLKQHPNADPKLKQTLETALKQASESSMTLSQPGKTI

Target: T1, GST-p115 (1 to 651), ND (human, UniProt O60763 1-651)
T1 construct: also called N-terminal ARM domain; globular head
T1 sequence (looked up): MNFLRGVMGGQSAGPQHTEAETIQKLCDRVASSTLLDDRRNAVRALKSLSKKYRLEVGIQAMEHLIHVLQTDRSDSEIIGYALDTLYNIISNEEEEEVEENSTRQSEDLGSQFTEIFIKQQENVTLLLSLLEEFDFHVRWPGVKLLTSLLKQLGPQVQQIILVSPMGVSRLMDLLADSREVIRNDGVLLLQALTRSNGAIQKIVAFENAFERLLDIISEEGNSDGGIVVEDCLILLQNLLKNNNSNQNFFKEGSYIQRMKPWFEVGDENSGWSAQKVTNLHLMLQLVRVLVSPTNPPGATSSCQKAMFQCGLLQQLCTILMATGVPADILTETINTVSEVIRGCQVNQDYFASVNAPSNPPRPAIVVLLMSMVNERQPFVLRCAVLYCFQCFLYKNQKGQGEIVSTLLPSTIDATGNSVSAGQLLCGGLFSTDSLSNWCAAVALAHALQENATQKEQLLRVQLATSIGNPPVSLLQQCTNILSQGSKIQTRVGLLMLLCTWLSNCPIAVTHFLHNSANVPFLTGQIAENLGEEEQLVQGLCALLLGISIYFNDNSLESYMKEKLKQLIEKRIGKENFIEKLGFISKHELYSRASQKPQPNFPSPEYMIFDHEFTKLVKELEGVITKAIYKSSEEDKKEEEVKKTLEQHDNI
Assay: pull-down

Binder | binding result
B1 | binds
B2 | binds

Source: article PMC9757750 (Science Advances, 2022)
